Anti-infective test results gathered from many reports (values: NIAID ChemDB through PubChem).

Common to all: tests on isolated targets; species: HIV-1; target: Protease; endpoint: inhibition

Conditions beyond the fields shown may differ between rows. Inhibition is in % at the dose shown (toxicity tests: loss of growth or viability). An empty or dashed field is not shown.

SMILES | method | setting | strain or isolate | tested at | value
CCC(Cc1ccccc1)c1cc(O)c(C(CC)c2ccccc2)c(=O)o1 | substrate cleavage |  |  | 9 µM | 13%
CC(C)[C@H](NC(=O)OCc1cccnc1)C(=O)N[C@@H](Cc1ccccc1)[C@@H](O)[C@H](O)[C@H](Cc1ccccc1)NC(=O)[C@@H](NC(=O)OCc1cccnc1)C(C)C | fluorescence |  |  | 0.001 µM | 74%
C=CCN1CC2(/C=C/c3ccccc3)CC(=O)CC(CO)(C1)C2O | HPLC |  |  | 250 µM | 77%
COc1ccc(-c2cc(=O)c3c(O)cc(O)cc3o2)cc1 | fluorescence |  |  | 50 µg/mL | 30.5%
Cc1ccccc1CNC(=O)[C@H]1N(C(=O)[C@@H](O)[C@H](Cc2ccccc2)NC(=O)c2cccc(N)c2Cl)CSC1(C)C | HPLC |  |  | 0.05 µM | 91%
CC(C)[C@@H](CO)NC(=O)[C@H](OCc1ccccc1)[C@H](O)[C@@H](O)[C@@H](OCc1ccccc1)C(=O)N[C@H](CO)C(C)C | absorbance |  |  | 10 µM | 0%
Cc1ccc(F)cc1CNC(=O)[C@H]1N(C(=O)[C@@H](O)[C@H](Cc2ccccc2)NC(=O)c2cccc(O)c2C)CSC1(C)C | HPLC |  |  | 0.05 µM | 98%
CC(C)(C)OC(=O)N[C@@H](Cc1ccccc1)[C@H](O)CNC[C@@H](O)[C@H](Cc1ccccc1)NC(=O)C1[C@H](O)CCC1(C)C | HPLC | pH 5.5 |  | 10 µM | 100%
CC(C)[C@H](NC(=O)CCc1cccnc1)C(=O)N[C@@H](Cc1ccccc1)[C@@H](O)[C@H](O)[C@H](Cc1ccccc1)NC(=O)[C@@H](NC(=O)CCc1cccnc1)C(C)C | fluorescence |  |  | 0.001 µM | 38%
CC[C@H](C)C(O)C(C)(O)/C=C/C1=CC2=CC(=O)[C@](C)(O)[C@H](O)[C@H]2CO1 | HPLC |  |  | 100 µg/mL | 0%
CC(C)(CO)OC(=O)N[C@@H](Cc1ccccc1)[C@@H](O)C[C@@H](Cc1ccc(OCCN2CCOCC2)cc1)C(=O)N[C@H]1c2ccccc2C[C@H]1O | HPLC |  |  | 0.0025 µg/mL | 54%
CC[C@H](C)[C@H](NC(=O)[C@H](CCC(N)=O)NC(=O)CCCOc1ccc2ccc(OCCCC(=O)N[C@H](C(=O)N[C@@H](CC(C)C)C(=O)N[C@H](C(=O)OC)C(C)C)C(C)C)nc2c1)C(=O)N[C@H](C(N)=O)[C@@H](C)O | fluorescence |  |  | 5.7 µM | 30%
O=c1c(O)c(-c2ccc(O)cc2)oc2cc(O)cc(O)c12 | FRET |  |  | 100 µg/mL | 86.4%
CC(=O)O[C@H]1CC(=O)OC(C)(C)[C@@H]2CC(=O)[C@]3(C)[C@H](CC[C@@]4(C)[C@H](c5ccoc5)OC(=O)[C@H]5O[C@]543)[C@@]12C |  |  |  | 20 µM | 60%
O=c1c(-c2ccc(O)cc2)coc2cc(OC3OC(CO)C(O)C(O)C3O)cc(O)c12 | substrate cleavage / fluorescence |  |  | 1000 µg/mL | 75%
Cc1cccc(C)c1OCC(=O)N[C@@H](Cc1ccccc1)[C@H](O)C(=O)N1CSC(C)(C)[C@H]1C(=O)NC(C)(C)C |  |  | IIIB | 0.05 µM | 56%
O=C(/C=C/c1ccc(O)c(O)c1)c1ccc(O)cc1O | fluorescence |  |  | 50 µg/mL | 57.9%
Cc1cc(O)ccc1NC(=O)[C@H](OCc1ccccc1)[C@H](O)[C@@H](O)[C@@H](OCc1ccccc1)C(=O)Nc1ccc(O)cc1C | absorbance |  |  | 10 µM | 0%
CCC(C)[C@H](NC(=O)CCCCCCCCCCCCCCC(=O)N[C@@H](CC(N)=O)C(=O)N[C@@H](Cc1ccccc1)C(=O)O)C(=O)N[C@@H](CCO)C(N)=O | HPLC |  |  | 1 µM | 8%
O=C(NCc1ccccn1)[C@H](OCc1ccccc1)[C@H](O)[C@@H](O)[C@@H](OCc1ccccc1)C(=O)NCc1ccccn1 | absorbance |  |  | 10 µM | 0%
O=C1C[C@@H](c2ccc(O)cc2)Oc2cc(O)cc(O)c21 | fluorescence |  |  | 50 µg/mL | 17%
CC(C(=O)O)C(C)C(=O)N[C@@H](Cc1ccccc1)[C@H](O)C(=O)N1CSC(C)(C)[C@H]1C(=O)NC(C)(C)C |  |  |  | 0.05 µM | 77.5%
Cc1cc(N)cc(C)c1OCC(=O)N[C@@H](Cc1ccccc1)[C@H](O)C(=O)N1CSC(C)(C)[C@H]1C(=O)N[C@H]1c2ccccc2C[C@H]1O | substrate cleavage |  |  | 0.05 µM | 96%
O=c1cc(-c2ccc(O)cc2)oc2cc(O)c(O)c(O)c12 | FRET |  |  | 100 µg/mL | 71.7%
O=c1oc2c(O)c(O)cc3c(=O)oc4c(O)c(O)cc1c4c23 | substrate cleavage / fluorescence |  |  | 1000 µg/mL | 78%
O=c1c(O)c(-c2ccccc2)oc2cc(O)cc(O)c12 | fluorescence |  |  | 50 µg/mL | 27.1%
O=C(N[C@@H](Cc1ccccc1)[C@H](Cc1ccccc1)n1cc(CN2CCN(C(=O)OCc3ccccc3)CC2)nn1)OC1CCCC1 | fluorescence |  |  | 5 µM | 33%
C=C(C)C1CCC2[C@]3(CC[C@]4(C)/C(=C(\C)CC/C=C(/C)C(=O)O)CC[C@@]24C)C[C@]13CCC(=O)O | fluorescence |  |  | 10 ± 8.8 µg/mL | 56.1%
Cc1cccc(C)c1OCC(=O)N[C@@H](Cc1ccccc1)[C@H](O)C(=O)N1CSC(C)(C)[C@H]1C(=O)NC(C)(C)C |  |  |  | 0.05 µM | 95.9%
C=C1OC(C(=O)O)C(/C(=C/C(=O)O)C(=O)OC2C3COC(=O)c4cc(O)c(O)c(O)c4-c4c(cc(O)c(O)c4O)C(=O)OC2C(O)C(OC(=O)c2cc(O)c(O)c(O)c2)O3)c2c1cc(O)c(O)c2O | HPLC |  |  | 50 µg/mL | 100%
COC(=O)CCCC[C@H]1[C@@H]2[C@H](CS1(=O)=O)N(Cc1cccc(Br)c1)C(=O)N2Cc1cccc(Br)c1 |  |  |  | 80 µM | 90%
CC1=CCC(C(C)C2=C(C)C3C[C@]4(O)C=C5C=CC(=O)OC(C)(C)C5[C@H](O)CC4[C@]3(C)C=C2)OC1=O | fluorescence |  |  | 10 ± 11.9 µg/mL | 11.8%
C=C(C)C1CC[C@]2(C)C(CC=C3C4[C@H](C)[C@@H](C)CC[C@]4(C)CC[C@]32C)[C@@]1(C)CCC(=O)O | substrate cleavage / fluorescence |  |  | 1000 µg/mL | 74.5%
CC(C)(NC(=O)CCCCCCCCCCCCCCC(=O)N[C@@H](CC(N)=O)C(=O)N[C@@H](Cc1ccccc1)C(=O)O)C(=O)N[C@@H](Cc1ccccc1)C(N)=O | HPLC |  |  | 1 µM | 7%
C=C1C(C(C)C2CC=C(C)C(=O)O2)=CC[C@]2(C)C1C[C@]1(O)C=C3C=CC(=O)OC(C)(C)C3[C@H](O)CC21 | fluorescence |  |  | 10 ± 5.5 µg/mL | 85%
CC(C)(C)OC(=O)N[C@@H](Cc1ccccc1)[C@@H](O)[C@H](O)[C@H](Cc1ccccc1)NC(=O)OC(C)(C)C | fluorescence |  |  | 0.1 µM | 67%
CC1CCC2(C(=O)O)CCC3(C)C(=CCC4C5(C)CCC(O)C(C)(C(=O)O)C5=CCC43C)C2C1C | substrate cleavage / fluorescence |  |  | 100 µg/mL | <50%
Cc1ccc(NC(=O)[C@H](OCc2ccccc2)[C@H](O)[C@@H](O)[C@@H](OCc2ccccc2)C(=O)Nc2ccc(C)cc2O)c(O)c1 | absorbance |  |  | 10 µM | 0%
CC(C)[C@H](NC(=O)OCc1ccccc1)C(=O)N[C@@H](Cc1ccccc1)[C@H](O)[C@H](Cc1ccccc1)NC(=O)[C@@H](NC(=O)OCc1ccncc1)C(C)C | fluorescence |  |  | 0.005 µM | 47%
CC(C)C/C=C/[C@@H](C)C1CCC2C3=C[C@@H](O)[C@@]4(O)C[C@@H](O)CC[C@]4(C)C3CC[C@@]21C | substrate cleavage |  |  | 240 µM | 17.61%
CC(C)[C@H](NC(=O)OCc1cccnc1)C(=O)N[C@@H](Cc1ccccc1)[C@H](O)[C@@H](O)[C@H](Cc1ccccc1)NC(=O)[C@@H](NC(=O)OCc1cccnc1)C(C)C | fluorescence |  |  | 0.001 µM | 78%
COc1cc(/C=C/C(=O)OCC2OC(OC3(COC(=O)/C=C/c4ccc(O)cc4)OC(COC(=O)/C=C/c4ccc(O)cc4)C(OC(C)=O)C3OC(=O)/C=C/c3ccc(O)cc3)C(O)C(O)C2OC(C)=O)ccc1O | substrate cleavage / fluorescence |  |  | 100 µg/mL | 33.24%
COC(=O)[C@H](CC(C)C)NC(=O)[C@H](OCc1ccccc1)[C@H](O)[C@@H](O)[C@@H](OCc1ccccc1)C(=O)N[C@@H](CC(C)C)C(=O)OC | absorbance |  |  | 10 µM | 0%
C[C@@H]1O[C@@H](OC[C@H]2O[C@@H](Oc3c(-c4ccc(O)cc4)oc4cc(O[C@@H]5O[C@@H](C)[C@H](O)[C@@H](O)[C@H]5O)cc(O)c4c3=O)[C@H](O)[C@@H](O)[C@H]2O)[C@H](O)[C@H](O)[C@H]1O | HPLC |  |  | 50 µg/mL | 18.4%
COC(=O)NC(C(=O)N[C@@H](Cc1ccccc1)[C@H](O)CNC[C@@H](O)[C@H](Cc1ccccc1)NC(=O)OC(C)(C)C)C(C)(C)C | HPLC | pH 5.5 |  | 10 µM | 28%
CSCC[C@H](NC(=O)[C@H](C)NC(=O)[C@H](CCC(=O)O)NC(=O)[C@H](C)N)C(=O)N[C@@H](CO)C(=O)N[C@@H](CCC(N)=O)C(=O)N[C@H](C(=O)O)C(C)C | HPLC |  | BH10 | 100 µM | <1%
Cc1ccccc1-n1nnc(C(c2ccccc2)(c2ccccc2)n2ccnc2)c1C | substrate cleavage / fluorescence |  |  | 50 µg/mL | 52.6%
CC(C)[C@H](NC(=O)OCc1ccccc1)C(=O)NC(Cc1ccccc1)C(O)C(F)(F)C(Cc1ccccc1)NC(=O)[C@@H](NC(=O)OCc1ccccc1)C(C)C | fluorescence |  |  | 0.001 µM | 53%
O=C(NCc1ccncc1)[C@H](OCc1ccccc1)[C@H](O)[C@@H](O)[C@@H](OCc1ccccc1)C(=O)NCc1ccncc1 | absorbance |  |  | 10 µM | 0%
CC(C)[C@H](NC(=O)OCc1ccccn1)C(=O)N[C@@H](Cc1ccccc1)[C@@H](O)[C@H](O)[C@H](Cc1ccccc1)NC(=O)[C@@H](NC(=O)OCc1ccccn1)C(C)C | fluorescence |  |  | 0.001 µM | 81%
C/C(=C/CC[C@@H](C)[C@H]1CC[C@@]2(C)C3CCC4C(C)(C)C(=O)CC[C@@]45CC35CC[C@]12C)C(=O)O | fluorescence |  |  | 10 ± 0.5 µg/mL | 89.2%
CCC(c1cccc(NC(=O)CCCCc2ccccc2)c1)c1c(O)c2ccccc2oc1=O | substrate cleavage |  |  | 10 µM | 14%
CC(=O)OC1C(COC(=O)/C=C/c2ccc(O)cc2)OC(COC(=O)/C=C/c2ccc(O)cc2)(OC2OC(COC(=O)/C=C/c3ccc(O)cc3)[C@@H](OC(C)=O)[C@H](O)[C@H]2O)C1OC(=O)/C=C/c1ccc(O)cc1 | substrate cleavage / fluorescence |  |  | 1000 µg/mL | 56.51%
CC(=O)OC1C(COC(=O)/C=C/c2ccc(O)cc2)OC(OC2(COC(=O)/C=C/c3ccc(O)cc3)OC(COC(=O)/C=C/c3ccc(O)cc3)C(OC(C)=O)C2OC(=O)/C=C/c2ccc(O)cc2)C(O)C1O | substrate cleavage / fluorescence |  |  | 100 µg/mL | 50.45%
CC(=O)N[C@@H](Cc1ccccc1)C(O)[C@H](Cc1ccccc1)NC(C)=O | fluorescence |  |  | 10 µM | 12%
O=C(CCc1ccc(O)cc1)c1c(O)cc(O)cc1O | fluorescence |  |  | 50 µg/mL | 26.8%